Article PMC6152089, “Steroid Alkaloids from Holarrhena africana with Strong Activity against Trypanosoma brucei rhodesiense” (Molecules : A Journal of Synthetic Chemistry and Natural …, 2017)
Values joined by “and” are separate entries in the source; they are usually repeats but may differ in a detail not shown here. Equal values may be shown once.

Tested on: Trypanosoma brucei rhodesiense (bloodstream trypomastigotes, STIB 900 strain)
Test: In vitro anti-trypanosomal activity against Tbr
Assay type: cell-based
Conditions: isolated compounds; SI = cytotoxic IC50 (L6)/IC50 Tbr
Protocol: In vitro tests for biological activity of the crude extracts, fractions, sub-fractions and isolated compounds against Trypanosoma brucei rhodesiense (bloodstream trypomastigotes, STIB 900 strain), Trypanosoma cruzi (amastigotes, Tulahuen C4 strain), Leishmania donovani (amastigotes, MHOM-ET-67/L82 strain), Plasmodium falciparum (intraerythrocytic form, NF54 strain) and cytotoxicity test against mammalian L6 cell line from rat skeletal myoblasts were performed according to the established standard protocol. However, only the activity data against Trypanosoma brucei rhodesiense is reported due to the inactivity of the tested substances against other parasites at the concentration tested.

Row | Compound | SI
1 | CC(=O)[C@H]1CC[C@H]2[C@@H]3CC=C4C[C@@H](N)CC[C@]4(C)[C@H]3CC[C@]12C [Compound 1, 3β-holaphyllamine] | 12.6
2 | CC(=O)N[C@H]1CC[C@@]2(C)C(=CC[C@H]3[C@@H]4CC[C@H](C(C)=O)[C@@]4(C)CC[C@@H]32)C1 [Compound 2, holaphyllamine acetamide] | 3.2
3 | CN[C@H]1CC[C@@]2(C)C(=CC[C@H]3[C@@H]4CC[C@H](C(C)=O)[C@@]4(C)CC[C@@H]32)C1 [Compound 3, 3β-N-methylholaphyllamine] | 33 and 33.2
4 | CC(=O)[C@H]1CC[C@H]2[C@@H]3CC=C4C[C@H](N)CC[C@]4(C)[C@H]3CC[C@]12C [Compound 4, 3α-holaphyllamine] | 42.9
5 | C[C@@H]1N=C[C@]23C[C@H](O)[C@H]4[C@@H](CCC5=CC(=O)C=C[C@@]54C)[C@@H]2CC[C@H]13 [Compound 8, holonamine] | 7.5
6 | C[C@H]1[C@H]2CC[C@H]3[C@@H]4C=CC5=CC(=O)CC[C@]5(C)[C@H]4CC[C@]23CN1C [Compound 9, cona-4,6-dienin-3-one] | 7.4
7 | C[C@H]1[C@H]2CC[C@H]3[C@@H]4C(=O)C=C5C=CCC[C@]5(C)[C@H]4CC[C@]23CN1C [Compound 10, cona-3,5-dienin-7-one] | 5.7
8 | C[C@@H]1NC[C@]23CC[C@H]4[C@@H](CC=C5C[C@@H](N(C)C)CC[C@@]54C)[C@@H]2CC[C@H]13 [Compound 11, conessimine] | > 300 and 302
9 | CN[C@H]1CC[C@@]2(C)C(=CC[C@H]3[C@@H]4CC[C@@H]5[C@H](C)N(C)C[C@@]54CC[C@@H]32)C1 [Compound 12, isoconessimine] | 168
10 | C[C@H]1[C@H]2CC[C@H]3[C@@H]4CC=C5C[C@@H](N(C)C)CC[C@]5(C)[C@H]4CC[C@]23CN1C [Compound 13, conessine] | 146
11 | CN[C@H]1CC[C@@]2(C)C(=CC[C@H]3[C@@H]4CC[C@@H]5[C@H](C)N(C)C[C@@]54[C@H](OC(=O)CC=C(C)C)C[C@@H]32)C1 [Compound 14, holarrhesine] | 121
12 | CC(C)=CCC(=O)O[C@@H]1C[C@H]2[C@@H](CC=C3C[C@@H](N(C)C)CC[C@@]32C)[C@@H]2CC[C@@H]3[C@H](C)N(C)C[C@]312 [Compound 15, holarrhetine] | 58.9
13 | CN[C@H]1CC[C@@]2(C)C(=CC[C@H]3[C@@H]4CC[C@@H]5[C@H](C)N(C)C[C@@]54[C@H](O)C[C@@H]32)C1 [Compound 16, holarrheline] | 22.0
14 | C[C@H]1[C@H]2CC[C@H]3[C@@H]4CC=C5C[C@@H](N(C)C)CC[C@]5(C)[C@H]4C[C@@H](O)[C@]23CN1C [Compound 17, holarrhenine] | 6.0
15 | N^3-isopentenyl adenine [Compound 19] | 12.2
